Source: US4929718A, “Synthetic noxiustoxin related peptides” (Universidad Nacional Autonoma De Mexico, priority 1987, dated 1990)

System: albino mice (strain CD1)
Experiment: "in vivo" challenge / lethality tests of synthetic peptides by injection of mice
Details: dose and route not given in the sentence

| Compound | toxicity in injected mice |
| --- | --- |
| Tyrosine-Glycine-Serine-Serine-Alanine-Glycine-Alanine-Lysine-Cysteine-Methionine-Asparagine-Glycine-Lysine-Cysteine-Lysine-Cysteine-Tyrosine-Asparagine-Asparagine [NTX 21-39] | not toxic |
| CC[C@H](C)[C@H](NC(=O)[C@@H](N)[C@@H](C)O)C(=O)N[C@H](C(=O)N[C@@H](CC(N)=O)C(=O)N[C@H](C(=O)N[C@@H](CCCCN)C(=O)N[C@@H](CS)C(=O)N[C@H](C(=O)N[C@@H](CO)C(=O)O)[C@@H](C)O)C(C)C)[C@@H](C)CC [NTX 1-9, Threonine-Isoleucine-Isoleucine-Asparagine-Valine-Lysine-Cysteine-Threonine-Serine] | symptoms of intoxication similar to those observed with native NTX |
